# Results of single-concentration screens

From ChEMBL document CHEMBL3988442, “University of Dundee, Small-Polar-MMV Screening Library” (2021).

A: 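Growth of Mycobacterium tuberculosis over 3 days (7H9 medium with glucose and tyloxapol); the read-out is not stated. Tested at 50 µM. Higher reads as more growth inhibition (inferred: compounds with an IC50 in retests scored well above the rest). Size under these conditions: about 69,000 compounds, about 760 of them at 50% or above in at least one test.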
B: 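Phenotypic screen: M. tuberculosis growth, cholesterol and DPPC medium, 4 days; the read-out is not stated. Concentration: 50 µM. Direction is inferred from retests: higher values go with more growth inhibition. Size under these conditions: about 69,000 compounds, about 370 of them at 50% or above in at least one test.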

Results are given as percent effect. How 0% and 100% were set is not recorded. Most values in the screen are low, and negative values occur. The entries come from a sample that favours strong results. Two or more numbers in one place are separate tests of the same structure; such repeats can differ widely. A dash means the value is not listed here; it may have been measured.

structure | A | B
CC(Cn1cc(Br)cn1)C(=O)Nc1ccc(C(N)=O)cc1 (centres undefined) | 6.473 | -
CN(C(=O)c1ccc(S(=O)(=O)NC(C)(C)C)cc1)C1(C#N)CCC1 | 8.988 | -
Cc1nc(-c2ccc(C(=O)O)cc2)cc(C2CCN(C(C)C)C2)n1 (centres undefined) | 8.179 | -
Cc1cc(C(=O)NCC2SCCc3ccccc32)no1 (centres undefined) | 56.27 | -
Cc1cc(C(=O)N2CCC(Nc3cccnc3)CC2)c(C)s1 | -16.86 | -
CN(CC(N)=O)C(=O)C1Cc2cc(Cl)ccc2O1 (centres undefined) | -1.128 & -39.79 | -
CC(C)c1nnc2n1CCN(C(=O)c1ccc(S(C)(=O)=O)cc1)C2 | - | 6.637
Fc1ccc(C(NCc2nnc(-c3ccco3)o2)C2CCC2)cc1 (centres undefined) | 60.87 | -
COc1ccccc1C(C)(C)NCc1ccco1 | 2.39 | -1.729
N#Cc1ccc(N2CCCN(CC(=O)N3CCC3)CC2)cc1 | 3.936 | -
CC(=O)N1CCC(c2cnc(-c3c(C)nn(C)c3C)cn2)CC1 | 1.747 | -
COc1cc(OC)cc(C(=O)NCCCNc2ncccn2)c1 | 2.247 | -
Cc1cccc(CC(=O)Nc2cccnc2N2CCC(CO)CC2)c1 | -10.33 & -0.3987 | -
Cc1cc(C)n(C2CCCN(C(=O)Cc3cccc(F)c3)C2)n1 (centres undefined) | -1.949 | -
NC1CCCCN(Cc2cc(-c3ccccc3OC(F)(F)F)no2)C1 (centres undefined) | 50.09 | -
CCO[C@H]1CO[C@@]2(CCN(Cc3ccc4c(c3)OCO4)C2)C1.O=C(O)C(F)(F)F | - | -3.024
CC(=O)N1CCCC(c2ccc(Cc3ccccc3)cn2)C1 (centres undefined) | 81.81 | 65.82
Cc1noc(CNc2ccc(C(=O)N3CCCC(C)C3)cc2C)n1 (centres undefined) | 5.978 | 7.479
CC(SCCS(C)(=O)=O)c1nc(Cc2ccc(F)cc2)no1 (centres undefined) | 12.53 | -
CCCc1cncnc1N1CCC(NCc2ccc(O)cc2)CC1 | 2.423 & -3.44 | -17.39
Cc1cc2n(n1)CC(CNC1CCN(C3CC3)CC1)CN2 (centres undefined) | 28.64 & 65.82 | -
N#Cc1ccc(NC2CCN(c3ncccn3)CC2)cc1Cl | 3.943 | 12.8
Cn1nc(C2CCCN(Cc3ccc(F)cc3F)C2)c2nccnc21 (centres undefined) | - | -5.645
COc1ccc(C(=O)CCc2nc(C3CC3)no2)cc1 | 22.64 | 47.13
CC(=O)c1c(F)cccc1N1CCC(CS(N)(=O)=O)CC1 | 6.862 | -
CC(CN1CCOCC1)NC(=O)c1cc(Cl)c2c(c1)OCCO2 (centres undefined) | 21.89 | -
COc1cccn(Cc2nnc(-c3cccnc3)o2)c1=O | 22.35 | -1.962
Cc1cc(C)nc(NC2CCC(=O)N(C)C2)n1 (centres undefined) | - | 8.302
Cn1ncc(NCc2cccc(COC(C)(C)C)c2)c(Cl)c1=O | - | 37.68
[H][C@@]12CC[C@H](Oc3ccccc3Cl)[C@]1([H])CN(C(=O)CNC(C)=O)C2 | - | 55.34
CC(C)COc1cncc(N(C)C2CCN(c3ncccn3)CC2)n1 | 66.72 | 52.19
CCN1CCN(S(=O)(=O)c2c[nH]c(C(C)C)n2)c2ccccc21 | 32.42 & 65.91 | -
Cc1cccc(CNC(Cc2ccsc2)c2nc(C)c(C)s2)n1.Cl (centres undefined) | 63.49 | -
[H][C@@]12C[C@@H](Oc3cccnc3)CN1CCN(C(=O)c1cnccn1)C2 | - | 1.955
c1cc(-c2cncnc2)cc(-c2ccn(CC3CCNC3)n2)c1 (centres undefined) | 16.69 | 22.28
CO[C@H]1CCN(C2CCOCC2)C[C@@H]1Cc1ccccc1.O=C(O)C(F)(F)F | 4.727 | -
CCC[C@H]1CN(S(=O)(=O)c2ccccc2)C[C@@H]1N | -3.034 | -
CC(C)COc1cncc(N2CCCN(c3ncccn3)CC2)n1 | 8.088 | -4.793
O=C(NCCOc1ccc(Cl)cn1)Nc1ccccn1 | 19.32 | -6.02 & -7.532
O=S(=O)(c1cc(F)ccc1N1CC(n2cccn2)C1)C(F)(F)F | 37.95 | 23.6
Cn1c(C2CC2)nc2c1CCN(CCOc1cccc(F)c1)C2 | 56.73 | -
CC(=O)N1CCc2nc(-c3ccccc3)nc(NC(C)C)c2CC1 | 0.5089 | -
O=C(NCc1ccco1)c1cc[n+]([O-])cc1 | 0.3186 | 16.01 & 9.244
Cc1nn(C)c(C)c1CCC(=O)N(C)Cc1ccc(C#N)cc1 | 26.05 | 20.38
CCOC(=O)N1CCN(C(=O)c2cc(-c3ccc(C)cc3)on2)CC1 | 39.05 | -
Cc1cc(-c2cnc(NCc3ccncc3)nc2C(C)C)on1 | 54.58 | 18.3
COCCC1(CO)CCCN(C(=O)CCC(F)(F)F)C1 (centres undefined) | -34.47 & 8.608 | 28.01
Cc1oc(C)c(C(=O)NCc2ccccn2)c1C | -2.431 | -6.792
COC(=O)CSc1nnc(CCNC(=O)OC(C)(C)C)o1 | -7.419 | -7.349
Cc1noc(NC(=O)c2cccc(Br)c2)n1 | 88.85 | -
CCCc1ccc2oc(C(=O)N3CCN(CCOC)CC3)c(C)c2c1 | 66.74 | 63.66
Cc1cccc2c1CCN(c1cc(N3CCCC3CO)ncn1)C2 (centres undefined) | 27.37 | -
COc1ccc(CCCC(=O)N2C[C@H](C3CC3)[C@@H](N(C)C)C2)cc1 | -6.742 | -
CN(Cc1cccnc1)CC1CC12CCN(Cc1nccs1)CC2 (centres undefined) | 8.006 & 0.5424 | -20.14

Some entries from above, unchanged:

{"structure": "[H][C@@]12C[C@@H](Oc3cccnc3)CN1CCN(C(=O)c1cnccn1)C2", "B": 1.955}
{"structure": "CCO[C@H]1CO[C@@]2(CCN(Cc3ccc4c(c3)OCO4)C2)C1.O=C(O)C(F)(F)F", "B": -3.024}
{"structure": "Cc1noc(CNc2ccc(C(=O)N3CCCC(C)C3)cc2C)n1", "stereo": "centres undefined", "A": 5.978, "B": 7.479}
{"structure": "COc1cc(OC)cc(C(=O)NCCCNc2ncccn2)c1", "A": 2.247}
{"structure": "CC(Cn1cc(Br)cn1)C(=O)Nc1ccc(C(N)=O)cc1", "stereo": "centres undefined", "A": 6.473}
{"structure": "Cc1cc(C(=O)N2CCC(Nc3cccnc3)CC2)c(C)s1", "A": -16.86}